Pooled drug test results. Numbers come from NIAID ChemDB, via PubChem.

Shared fields: whole-cell or culture tests; species: Epstein-Barr virus; endpoint: EC50

Rows are shuffled and stem from different studies. An empty or dashed field is not shown. ECn is the concentration giving n% inhibition of infection, replication or growth.

SMILES	cells	strain	read by	result
Cc1cn([C@H]2C[C@H](N=[N+]=[N-])[C@@H](CO)O2)c(=O)nc1N	P3HR-1			>30 µM
CCCCCCCCCC(=O)O[C@H]1C[C@H](n2cc(/C=C/Br)c(=O)[nH]c2=O)O[C@@H]1COP1(=O)OCc2cccc(C)c2O1	P3HR-1			>149 µM
O=C(Nc1ccccc1)c1c(O)[nH]c(=S)[nH]c1=O	Akata-Bx1		PCR	22.19 µM
C=CCc1cc(OC)c(O[C@H](C)[C@H](O)c2cc(OC)c(OC)c(OC)c2)c(OC)c1	P3HR-1		PCR	21.9 µM
Nc1ncnc2c1c(I)cn2[C@@H]1O[C@H](CO)[C@@H](O)[C@H]1O	Akata		PCR	0.89 µM
O=c1[nH]c(=O)n([C@H]2C[C@H](O)[C@@H](CO)O2)cc1/C=C/Br	P3HR-1		PCR	22 µg/mL
N#CC(=C(/N)Sc1ccccc1N)/C(C#N)=C(\N)Sc1ccccc1N	Akata		PCR	0.552 µM
Nc1ncnc2c1ncn2[C@@H]1C[C@@H](O)[C@H](CO)O1	DAUDI			5.7 µM
CC(C)CNc1ncnc2c1ncn2CCOCP(=O)(O)O	P3HR-1		hybridisation	10 µg/mL
Nc1nc2c(ncn2COC(CO)CO)c(=O)[nH]1		B95-8 lymphoblastoid	PCR	3.9 µM
COC(=O)[C@H](C)NP(=O)(OCC1C/C1=C/n1cnc2c(N)ncnc21)Oc1ccccc1	H-1		hybridisation	0.1 µM
O=P(O)(O)COCCn1cnc2c(NC3CCCCC3)ncnc21	P3HR-1		hybridisation	4.8 µg/mL
Cc1cn([C@H]2C[C@H](N=[N+]=[N-])[C@@H](CO)O2)c(=O)[nH]c1=O	P3HR-1			7.7 µM
Nc1nc(Cl)nc2c1ncn2/C=C1/CC1CO	H-1		hybridisation	>20 µM
Nc1nc2c(ncn2[C@H]2C[C@@]23C[C@H]3CO)c(=O)[nH]1	DAUDI		ELISA	>199 µM
Nc1nc2c(ncn2COC(CO)CO)c(=O)[nH]1	P3HR-1		PCR	0.14 µg/mL
CCOC(C)n1nc(OS(=O)(=O)c2ccc(C)cc2)c(C(F)(F)F)n1		B95-8 lymphoblastoid	PCR	11 µM
Cc1cn([C@@H]2C[C@@H](O)[C@H](CO)O2)c(=O)[nH]c1=O	DAUDI			>50 µM
CCCCCC(=O)O[C@H]1C[C@H](n2cc(/C=C/Br)c(=O)[nH]c2=O)O[C@@H]1COP1(=O)OCc2cccc(C)c2O1	P3HR-1			>100 µg/mL
O=c1cc(N2CCOCC2)oc2c(-c3ccccc3)cccc12	Akata		PCR	1.835 µM
Nc1nc(F)nc2c1ncn2/C=C1\CC1CO	H-1		hybridisation	>20 µM
C[C@H](Cn1cnc2nc(N)nc(N(C)C)c21)OCP(=O)(O)O	P3HR-1		hybridisation	4 µg/mL
Cc1cccc2c1OP(=O)(OC[C@H]1O[C@@H](n3cc(/C=C/Br)c(=O)[nH]c3=O)C[C@@H]1OC(=O)C(C)(C)C)OC2	P3HR-1			>83.4 µM
Nc1nc2c(ncn2COC(CO)CO)c(=O)[nH]1	P3HR-1			0.15 µM
Nc1ncc2c(ncn2COC(CO)CO)n1	P3HR-1		hybridisation	0.0005 µg/mL
Nc1nc2c(ncn2[C@H]2C[C@]23C[C@@H]3CO)c(=O)[nH]1	DAUDI		ELISA	>199 µM
C/C(=N\C1O[C@H](CO)[C@@H](O)[C@H](O)C1Cl)n1nc(OS(=O)(=O)c2ccc(C)cc2)c(C(F)(F)F)n1		B95-8 lymphoblastoid	PCR	15.6 µM
COC(=O)[C@H](C)NP(=O)(OC[C@H]1C/C1=C/n1cnc2c(=O)[nH]c(N)nc21)Oc1ccccc1	H-1		hybridisation	>10 µM
COC(=O)[C@H](C)NP(=O)(OC[C@@H]1C[C@]12C[C@@H]2n1cnc2c(N)ncnc21)Oc1ccccc1	DAUDI		ELISA	2.8 µM
COC(=O)[C@H](C)NP(=O)(OC[C@H]1C/C1=C/n1cnc2c(OC)nc(N)nc21)Oc1ccccc1	H-1		hybridisation	0.4 µM
Nc1[nH]c(=O)nc2c1ncn2/C=C1/C[C@@H]1CO	H-1		hybridisation	>20 µM
Nc1nc2c(ncn2[C@H]2C[C@@]23C[C@@H]3CO)c(=O)[nH]1	DAUDI		plaque count	6 µM
Nc1nc(NC2CC2)c2ncn(C=C3CC3CO)c2n1	DAUDI		antigen	11.8 µM
Cn1c2ccccc2c2c3c(c4c5ccccc5n(CCC#N)c4c21)CNC3=O	Akata			0.11 µM
Nc1nc2c(ncn2[C@H]2C[C@@]23C[C@@H]3CO)c(=O)[nH]1	DAUDI		ELISA	6 µM
CCCCCC(=O)O[C@H]1C[C@H](n2cc(/C=C/Br)c(=O)[nH]c2=O)O[C@@H]1COP1(=O)OCc2cccc(C)c2O1	P3HR-1			>163 µM

The last 2 rows once more:

SMILES | cells | strain | read by | result
Nc1nc2c(ncn2[C@H]2C[C@@]23C[C@@H]3CO)c(=O)[nH]1 | DAUDI |  | ELISA | 6 µM
CCCCCC(=O)O[C@H]1C[C@H](n2cc(/C=C/Br)c(=O)[nH]c2=O)O[C@@H]1COP1(=O)OCc2cccc(C)c2O1 | P3HR-1 |  |  | >163 µM